Measured values from several laboratories, pooled; numbers as filed in NIAID ChemDB.

All rows: growth or infection tests; species: Candida glabrata; measure: MIC

An empty or dashed field is not shown. Conditions beyond the fields shown may differ between rows.

SMILES	strain	method	conditions	result
O/N=C(\COc1ccccc1)c1ccccc1	ATCC 90030	broth dilution	48 h	>125 µg/mL
Clc1ccc(COC(Cn2ccnc2)c2ccc(Cl)cc2Cl)c(Cl)c1	40 isolates	broth dilution	pH 5	0.5 µg/mL
CCC(C)n1ncn(-c2ccc(N3CCN(c4ccc(OC[C@H]5CO[C@](Cn6cncn6)(c6ccc(Cl)cc6Cl)O5)cc4)CC3)cc2)c1=O	Clinical isolates	-	-	10.4 µg/mL
CC1=C2C(=O)c3c(C)coc3C[C@@]2(C)[C@H](O)C[C@H]1O	ATCC 90030	broth dilution	-	>256 µg/mL
Nc1nc(=O)n([C@H]2O[C@@H](CO)[C@H](O)[C@@H]2O)cc1F	ATCC 24220	broth dilution	-	0.75 µg/mL
COC(=O)[C@H]1[C@@H]2C[C@@H](O[C@@H]3O[C@H](C)[C@@H](O)[C@H](N)[C@@H]3O)/C=C/C=C/C=C/C=C/C=C/C=C/C=C/[C@H](C)[C@@H](O)[C@H](C)[C@H](C)OC(=O)C[C@H](O)C[C@H](O)[C@@H](O)CC[C@H](O)C[C@H](O)C[C@](O)(C[C@@H]1O)O2	40 isolates	broth dilution	pH 4	4 µg/mL
Nc1scc2c1c(=O)oc1ccc3ccccc3c12	IP35	broth dilution	-	32 µg/mL
COc1ccc(/C=N/NC(=O)c2ccc(CNc3nc4ccccc4[nH]3)cc2)cc1	ATCC 36583	broth dilution	-	100 µg/mL
CC1CC(=O)N(c2ccc([N+](=O)[O-])cc2)C1=O	CCC 115-2000	broth dilution / turbidity	-	125 µg/mL
COc1cccc2c1C(=O)c1c(O)c3c(c(O)c1C2=O)C[C@@](O)(C(C)=O)C[C@@H]3O[C@H]1C[C@H](N)[C@H](O)[C@H](C)O1	ATCC 90030	-	-	>100 µM
O=c1c(OC2CCCC2)c(N2CCN(S(=O)(=O)NCc3ccccc3)CC2)cnn1-c1cccc(Cl)c1	C454	broth dilution	-	1 µg/mL
CCOC(=O)C1C(=O)C=C(c2ccc(Br)cc2)CC1c1ccc(C2CC(c3ccc(Br)cc3)=CC(=O)C2C(=O)OCC)cc1	Clinical isolate	-	-	25 µg/mL
CCCCCCCCCCCCCCCC(=O)NC(CCCCN)C(=O)NC(CCCCN)C(N)=O	4849	broth dilution	-	4 µg/mL
O=C(COc1ccc(F)cc1)c1ccccc1	ATCC 90030	broth dilution	48 h	>125 µg/mL
CC(C)c1ccc(NS(=O)(=O)c2ccc(CN(C)CC(O)(Cn3cncn3)c3ccc(F)cc3F)cc2)cc1	468	resazurin	-	<0.001 µg/mL
CC[C@@]1(O)C[C@H](O[C@H]2C[C@H](N(C)C)[C@H](O[C@H]3C[C@H](O)[C@H](O[C@H]4CCC(=O)[C@H](C)O4)[C@H](C)O3)[C@H](C)O2)c2c(cc3c(c2O)C(=O)c2c(O)cccc2C3=O)[C@H]1C(=O)OC	ATCC 90030	-	-	37.1 µM
CC(C)S(=O)(=O)N1CCN(c2cnn(-c3cc(F)cc(F)c3)c(=O)c2OC2CCC(F)C2)CC1	C454	broth dilution	-	0.1 µg/mL
C[C@@H](c1ncncc1F)[C@](O)(Cn1cncn1)c1ccc(F)cc1F	8655	broth dilution	-	0.5 µg/mL
CN(Cc1ccc(S(=O)(=O)NC(C)(C)C)cc1)CC(O)(Cn1cncn1)c1ccc(F)cc1F	468	resazurin	-	<0.001 µg/mL
CCOC(=O)C1C(=O)C=C(c2ccc(OC)cc2)CC1c1ccc(C2CC(c3ccc(OC)cc3)=CC(=O)C2C(=O)OCC)cc1	Clinical isolate	-	-	6.25 µg/mL
O=C(O)c1ccc(/C=N/NC(=O)c2ccc(CNc3nc4ccccc4[nH]3)cc2)cc1	ATCC 36583	broth dilution	-	50 µg/mL
C[C@@H](c1ncncc1F)[C@](O)(Cn1cncn1)c1ccc(F)cc1F	40 isolates	broth dilution	pH 5	4 µg/mL
O=C(CCn1ccnc1)c1ccc(Cl)cc1	RTCC 1040	broth dilution	-	>64 µg/mL
Cc1ccc(N2N=C(c3c[nH]c4ccccc34)CC2c2c(Cl)cccc2Cl)cc1	ATCC 36583	broth dilution	-	200 µg/mL
O/N=C(/COc1ccc(F)cc1)c1ccccc1	ATCC 90030	broth dilution	24 h	31.25 µg/mL
O=C(N/N=C/c1ccc(Br)cc1)c1ccc(CNc2nc3ccccc3[nH]2)cc1	ATCC 36583	broth dilution	-	100 µg/mL
O=C(CCn1ccnc1)c1ccc2ccccc2c1	RTCC 1040	broth dilution	-	64 µg/mL
CC1CC(=O)N(c2ccccc2)C1=O	CCC 115-2000	broth dilution / turbidity	-	125 µg/mL
Cc1coc2c1C(=O)[C@@H]1[C@@](C)(C2)[C@H](O)CC[C@@]1(C)O	ATCC 90030	broth dilution	-	>256 µg/mL
O=P(O)(O)OP(=O)(O)OP(=O)(O)O	MC425	broth dilution	-	390 µg/mL
CN(Cc1ccc(NS(=O)(=O)c2ccccc2)cc1)CC(O)(Cn1cncn1)c1ccc(F)cc1F	468	resazurin	-	1.4 µg/mL
Cc1ccc(N2N=C(c3c[nH]c4ccccc34)CC2c2ccc(Cl)c(Cl)c2)cc1	ATCC 36583	broth dilution	-	100 µg/mL
O=C(N/N=C/c1ccc(C(F)(F)F)cc1)c1ccc(CNc2nc3ccccc3[nH]2)cc1	ATCC 36583	broth dilution	-	50 µg/mL
O=C(COc1cccc(Cl)c1)c1ccccc1	ATCC 90030	broth dilution	48 h	>125 µg/mL
O=C(/C=C/c1cc(Cl)cc(Cl)c1)c1c[nH]c2ccccc12	ATCC 36583	broth dilution	-	200 µg/mL
CN(Cc1ccc(S(N)(=O)=O)cc1)CC(O)(Cn1cncn1)c1ccc(F)cc1F	468	resazurin	-	3.4 µg/mL
C/C1=C\C(=O)c2c(C)coc2C/C(C)=C/CC1	ATCC 90030	broth dilution	-	>256 µg/mL
O=C(COc1cccc(F)c1)c1ccccc1	ATCC 90030	broth dilution	24 h	>125 µg/mL
CC(C)c1cccc(-c2nc3[n+]([nH]2)CCN([C@H](C)[C@](O)(C[n+]2cnc[nH]2)c2ccc(F)cc2F)C3)c1	537	-	-	0.125 µg/mL
CC1CC(=O)N(Cc2ccccc2)C1=O	CCC 115-2000	broth dilution / turbidity	-	125 µg/mL
OC(CCn1ccnc1)c1ccc(-c2ccccc2)cc1	RTCC 1054	broth dilution	-	>64 µg/mL
CCCCCCCC/C=C\CCCCCCCC(=O)N[C@H](C(=O)N1C[C@H](C)C[C@H]1C(=O)N[C@H](C(=O)N[C@@H](CCO)C(=O)N[C@@H](C)C=O)C(C)C)[C@@H](C)O	ATCC 90030	broth dilution / visual reading	-	2 µg/mL
CCOC(=O)C1C(=O)C=C(c2ccc(F)cc2)CC1c1ccc(C2CC(c3ccc(F)cc3)=CC(=O)C2C(=O)OCC)cc1	Clinical isolate	-	-	12.5 µg/mL
CN(Cc1ccc(S(=O)(=O)Nc2ccccc2)cc1)CC(O)(Cn1cncn1)c1ccc(F)cc1F	468	resazurin	-	2 µg/mL
Clc1ccccc1C(c1ccccc1)(c1ccccc1)n1ccnc1	40 isolates	broth dilution	pH 5	4 µg/mL
COc1cc(OCC(=O)c2ccccc2)cc(OC)c1OC	ATCC 90030	broth dilution	48 h	>125 µg/mL
OC(CCn1ccnc1)c1cccc(C(O)c2ccc(Br)cc2)c1	RTCC 1054	broth dilution	-	>64 µg/mL
CCCC[C@@H](C)/C=C(C)/C=C(\C)C(=O)N/C(=C/[C@@](C)(O)/C=C/C=C/C=C/C(=O)NC1=C(O)CCC1=O)C(=O)[C@@H]1CO1	1	broth dilution	-	25 µM
O=C(N/N=C/c1ccc([N+](=O)[O-])cc1)c1ccc(CNc2nc3ccccc3[nH]2)cc1	ATCC 36583	broth dilution	-	25 µg/mL
CC[C@@]1(O)C(=O)OCc2c1cc1n(c2=O)Cc2cc3c(CN(C)C)c(O)ccc3nc2-1	ATCC 90030	-	-	>100 µM
CC1CC(=O)N(CCCc2ccccc2)C1=O	CCC 115-2000	broth dilution / turbidity	-	125 µg/mL
O=C(CCn1ccnc1)c1ccc(Br)cc1	RTCC 1054	broth dilution	-	>64 µg/mL
COC(=O)/C(C)=C1\C(=O)[C@H](O)[C@]2(C)C3=C1[C@]14OC(=O)C5=C1C[C@H]1[C@](O)(COC(=O)/C(C)=C/COC(=O)CCC(=O)OC5)[C@H]5C[C@H]5[C@]1(C)[C@@H]4C[C@]3(O)[C@H]1C[C@H]12	ATCC 90030	broth dilution	-	>256 µg/mL
C[C@@H](c1ncncc1F)[C@](O)(Cn1cncn1)c1ccc(F)cc1F	1	broth dilution	-	0.5 µg/mL
O=C(N/N=C/c1ccccc1)c1ccc(CNc2nc3ccccc3[nH]2)cc1	ATCC 36583	broth dilution	-	50 µg/mL
CCOc1ccc2nc3cc(N=C4NC(=O)/C(=C\C=C\c5ccc([N+](=O)[O-])o5)S4)ccc3c(N)c2c1	-	broth dilution	-	333 µg/mL
Cc1ccc(/C=N/NC(=O)c2ccc(CNc3nc4ccccc4[nH]3)cc2)cc1	ATCC 36583	broth dilution	-	50 µg/mL
CCC(C)CC(C)CCCCCCCCC(=O)N[C@H]1C[C@@H](O)[C@H](NCCN)NC(=O)[C@@H]2[C@@H](O)CCN2C(=O)[C@H]([C@H](O)CCN)NC(=O)[C@H]([C@H](O)[C@@H](O)c2ccc(O)cc2)NC(=O)[C@@H]2C[C@@H](O)CN2C(=O)[C@H]([C@@H](C)O)NC1=O	8653	broth dilution	-	4 µg/mL
Cc1ccc(N2N=C(c3c[nH]c4ccccc34)CC2c2cccc(Cl)c2Cl)cc1	ATCC 36583	broth dilution	-	200 µg/mL

A second listing of 6 rows from above:

| SMILES | strain | method | conditions | result |
|---|---|---|---|---|
| Nc1scc2c1c(=O)oc1ccc3ccccc3c12 | IP35 | broth dilution | - | 32 µg/mL |
| CC[C@@]1(O)C(=O)OCc2c1cc1n(c2=O)Cc2cc3c(CN(C)C)c(O)ccc3nc2-1 | ATCC 90030 | - | - | >100 µM |
| C/C1=C\C(=O)c2c(C)coc2C/C(C)=C/CC1 | ATCC 90030 | broth dilution | - | >256 µg/mL |
| COc1cc(OCC(=O)c2ccccc2)cc(OC)c1OC | ATCC 90030 | broth dilution | 48 h | >125 µg/mL |
| CN(Cc1ccc(NS(=O)(=O)c2ccccc2)cc1)CC(O)(Cn1cncn1)c1ccc(F)cc1F | 468 | resazurin | - | 1.4 µg/mL |
| COC(=O)/C(C)=C1\C(=O)[C@H](O)[C@]2(C)C3=C1[C@]14OC(=O)C5=C1C[C@H]1[C@](O)(COC(=O)/C(C)=C/COC(=O)CCC(=O)OC5)[C@H]5C[C@H]5[C@]1(C)[C@@H]4C[C@]3(O)[C@H]1C[C@H]12 | ATCC 90030 | broth dilution | - | >256 µg/mL |